Measured values from several laboratories, pooled; numbers as filed in NIAID ChemDB.

All rows: enzyme or target tests; organism: HIV-1; target: Integrase; read-out: IC50

Two numbers with a dash give a range or band.

structure,read by,result
CN1CCN(C(=O)CN2CCn3c(nc(C(=O)NCc4ccc(F)cc4)c(O)c3=O)C2(C)C)CC1,ELISA,<10 µM
CC(C)(C(=O)Nc1cn2ccn(Cc3cccc(Cl)c3)c(=O)c2c(O)c1=O)c1ccccc1,ELISA,<0.01 µM
CN1CCn2c(nc(C(=O)NCc3ccc(F)cc3)c(O)c2=O)C(N(Cc2ccccc2)C(=O)C(=O)N(C)C)C1,ELISA,<10 µM
CC(=O)Nc1cn2c(c(O)c1=O)C(=O)N(Cc1cccc(Cl)c1F)CC2,ELISA,0.01–0.1 µM
COc1ccc(CN(Cc2ccc(F)cc2)C(=O)/C=C(\O)C(=O)O)c(OC)c1,strand transfer,<70 µM
N#C/C(=C\c1cc(O)c(O)c(O)c1)C(=O)NCCCNC(=O)/C(C#N)=C/c1cc(O)c(O)c(O)c1,disintegration,2 µM
CN(C)C(=O)C(=O)N(C)CC1c2nc(C(=O)NCc3ccc(F)cc3)c(O)c(=O)n2CCN1C,ELISA,<10 µM
O=c1ccn2ccn(CCCc3cc(Cl)cc(Cl)c3)c(=O)c2c1O,ELISA,0.01–0.1 µM
CCN(Cc1ccc(F)cc1)C(=O)/C=C(\O)C(=O)O,strand transfer,<70 µM
Cc1cc(CN2CCn3c(nc(C(=O)NCc4ccc(F)cc4)c(O)c3=O)C2(C)C)no1,ELISA,<10 µM
CC(C)n1c(=O)c(O)c2n(c1=O)C(COCc1ccccc1)CN(Cc1ccc(F)cc1)C2=O,strand transfer,<10 µM
N#C/C(=C\c1ccc(O)c(O)c1)C(=O)NCCCNC(=O)/C(C#N)=C/c1ccc(O)c(O)c1,disintegration,8.6 µM
O=C1c2c(O)c(=O)n(C3CCCCC3N3CCOCC3)c(=O)n2CCN1Cc1ccc(F)cc1,strand transfer,<10 µM
CN(C)CC1NCCn2c1nc(C(=O)NCc1ccc(F)cc1)c(O)c2=O,ELISA,<10 µM
O=C1c2c(O)c(=O)ccn2C2(CCCC2)CN1Cc1ccc(Cl)c(Cl)c1,ELISA,0.01–0.1 µM
N#C/C(=C\c1ccccc1)S(=O)(=O)/C(C#N)=C/c1ccc(O)c(O)c1,3′ processing / substrate cleavage,4.7 µM
CN(Cc1ccc(F)cc1)C(=O)/C=C(\O)C(=O)O,strand transfer,<70 µM
CCCOc1cc(Cl)cc(CN2CCn3cc(-c4nccs4)c(=O)c(O)c3C2=O)c1,ELISA,0.01–0.1 µM
N#C/C(=C\c1cc(O)c(O)c([N+](=O)[O-])c1)C(=O)NCCCNC(=O)/C(C#N)=C/c1cc(O)c(O)c([N+](=O)[O-])c1,3′ processing / substrate cleavage,3.3 µM
O=C1c2c(O)c(=O)n(C3CCSc4ccccc43)c(=O)n2CCN1Cc1ccc(F)cc1,strand transfer,<10 µM
CCC(C)(C)C(=O)c1cn2c(c(O)c1=O)C(=O)N(Cc1cccc(Cl)c1)CC2,ELISA,0.01–0.1 µM
CN(Cc1ccc(Cl)cc1)C(=O)/C=C(\O)C(=O)O,strand transfer,<70 µM
CSc1cn2ccn(Cc3cccc(Cl)c3)c(=O)c2c(O)c1=O,ELISA,0.01–0.1 µM
CCCCN(CCCC)CCCn1c(=O)c(O)c2n(c1=O)CCN(Cc1ccc(F)cc1)C2=O,strand transfer,<10 µM
CS(=O)c1cn2ccn(Cc3cccc(Cl)c3)c(=O)c2c(O)c1=O,ELISA,0.01–0.1 µM
CC(c1ccccc1)N(Cc1ccc(F)cc1)C(=O)/C=C(\O)C(=O)O,strand transfer,~70 µM

2 of the rows above, restated:

structure	read by	result
CSc1cn2ccn(Cc3cccc(Cl)c3)c(=O)c2c(O)c1=O	ELISA	0.01–0.1 µM
CN(Cc1ccc(F)cc1)C(=O)/C=C(\O)C(=O)O	strand transfer	<70 µM

Rows are shuffled and stem from different studies. ICn is the concentration giving n% inhibition.